A mixed list of measured activities; the numbers were collected in NIAID ChemDB.

Shared fields: whole-cell or culture tests; species: Aspergillus fumigatus; measure: MFC

Blank or dashed fields: not listed here. Two numbers with a dash give a range or band. Neighbouring rows are from separate reports.

structure | method | strain | result
CC(C)=CCC/C(C)=C/CO | broth dilution | MTCC 2550 | 288 µg/mL
CN(C/C=C/C#CC(C)(C)C)Cc1cccc2ccccc12 |  | NFI 0159 | 4 µg/mL
Cc1cc(NS(=O)(=O)c2ccc(N)cc2)no1 |  | 20 isolates | >320 µg/mL
Cc1ccc2occ(C(c3c(O)c4ccccc4oc3=O)c3c(O)c4ccccc4oc3=O)c(=O)c2c1 | agar diffusion / agar |  | 100 µg/mL
O=C/C=C/c1ccccc1 | broth dilution | MTCC 2550 | 160 µg/mL
N#CSCc1ccccc1 | broth dilution |  | 150 µg/mL
C[C@H]1[C@H](O)[C@@H](C)/C=C/C=C/C=C/C=C/C=C/C=C/C=C/[C@H](O[C@@H]2O[C@H](C)[C@@H](O)[C@H](N)[C@@H]2O)C[C@@H]2O[C@](O)(C[C@@H](O)C[C@@H](O)CC[C@H](O)[C@@H](O)C[C@@H](O)CC(=O)O[C@H]1C)C[C@H](O)[C@H]2C(=O)O |  | NFI 0159 | 2 µg/mL
COc1ccccc1CN=C=S | broth dilution |  | 150 µg/mL
Nc1ccc(S(=O)(=O)c2ccc(N)cc2)cc1 |  | 20 isolates | >16 µg/mL
CNCCC(Oc1ccc(C(F)(F)F)cc1)c1ccccc1 |  | 10 clinical isolates | 39–156 µg/mL
Cc1noc(NS(=O)(=O)c2ccc(N)cc2)c1C |  | 20 isolates | >400 µg/mL
COc1ccc(CN=C=S)cc1 | broth dilution |  | 1 µg/mL
O=c1oc2ccccc2c(O)c1C(c1c(O)c2ccccc2oc1=O)c1coc2ccccc2c1=O | agar diffusion / agar |  | 50 µg/mL
COc1ccc(CSC#N)cc1 | broth dilution |  | 300 µg/mL
COc1ccc(NS(=O)(=O)c2ccc(N)cc2)nn1 |  | 20 isolates | >400 µg/mL

2 of the rows above, restated:

structure | method | strain | result
Cc1cc(NS(=O)(=O)c2ccc(N)cc2)no1 |  | 20 isolates | >320 µg/mL
Nc1ccc(S(=O)(=O)c2ccc(N)cc2)cc1 |  | 20 isolates | >16 µg/mL